Target: SARS2-RBD-Fc (SARS-CoV-2, UniProt P0DTC2)
Assay: SPR

B1: monomeric tagged soluble pangolin ACE2 (pangolin ACE2-CT) (domain or fragment)
chain: QSTSDEEAKTFLEKFNSEAEELSYQSSLASWNYNTNITDENVQKMNVAGAKWSTFYEEQSKIAKNYQLQNIQNDTIKRQLQALQLSGSSALSADKNQRLNTILNTMSTIYSTGKVCNPGNPQECSLLEPGLDNIMESSKDYNERLWAWEGWRSEVGKQLRPLYEEYVVLKNEMARANHYEDYGDYWRGDYEAEGANGYNYSRDHLIEDVEHIFTQIKPLYEHLHAYVRAKLMDNYPSHISPTGCLPAHLLGDMWGRFWTNLYPLTVPFRQKPNIDVTDAMVNQTWDANRIFKEAEKFFVSVGLPKMTQTFWENSMLTEPGDGRKVVCHPTAWDLGKHDFRIKMCTKVTMDDFLTAHHEMGHIQYDMAYAMQPYLLRNGANEGFHEAVGEIMSLSAATPKHLKNIGLLPPDFYEDNETEINFLLKQALTIVGTLPFTYMLEKWRWMVFSGQIPKEQWMKKWWEMKREIVGVVEPVPHDETYCDPASLFHVANDYSFIRYYTRTIYQFQFQEALCQTAKHEGPLHKCDISNSAEAGQKLLQMLSLGKSKPWTLALERVVGTKNMDVRPLLNYFEPLLTWLKEQNKNSFVGWNTDWSPY
  Kd: 986 nM
